For at least one entry, the source does not settle the construct or the ends of the probe. At least one result comes from cells or an extract, where the contact may be indirect. For part of these data: A negative result means that nothing was seen under these conditions. For part of these data: At least one verdict was read from the data and is not stated in words by the source. For part of these data: Where a protein sequence is shown, tags need not be part of it.

Amino acid sequences for entries named in this document (tags omitted). A change or cut given only in a name is not applied to a line headed by its entry.
UniProt Q61069: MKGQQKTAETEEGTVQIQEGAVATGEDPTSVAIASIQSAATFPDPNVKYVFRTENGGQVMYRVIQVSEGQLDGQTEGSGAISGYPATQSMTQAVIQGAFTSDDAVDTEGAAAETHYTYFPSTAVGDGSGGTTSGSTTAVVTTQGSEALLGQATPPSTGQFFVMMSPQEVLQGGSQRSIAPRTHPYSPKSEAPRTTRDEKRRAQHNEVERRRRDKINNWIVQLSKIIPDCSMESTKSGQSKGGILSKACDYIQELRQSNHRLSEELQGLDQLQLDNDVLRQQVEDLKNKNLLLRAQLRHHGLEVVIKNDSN
UniProt Q64705: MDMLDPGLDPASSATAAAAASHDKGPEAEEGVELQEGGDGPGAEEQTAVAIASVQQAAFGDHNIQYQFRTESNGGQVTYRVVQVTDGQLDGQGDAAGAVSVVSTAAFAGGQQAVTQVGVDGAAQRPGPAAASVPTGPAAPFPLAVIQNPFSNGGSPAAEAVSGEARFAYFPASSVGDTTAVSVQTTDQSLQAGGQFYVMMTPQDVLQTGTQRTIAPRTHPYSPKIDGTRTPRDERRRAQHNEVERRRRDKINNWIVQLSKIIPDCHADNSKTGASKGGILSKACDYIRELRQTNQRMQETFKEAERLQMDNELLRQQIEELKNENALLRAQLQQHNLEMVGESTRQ
UniProt P42227, whole entry: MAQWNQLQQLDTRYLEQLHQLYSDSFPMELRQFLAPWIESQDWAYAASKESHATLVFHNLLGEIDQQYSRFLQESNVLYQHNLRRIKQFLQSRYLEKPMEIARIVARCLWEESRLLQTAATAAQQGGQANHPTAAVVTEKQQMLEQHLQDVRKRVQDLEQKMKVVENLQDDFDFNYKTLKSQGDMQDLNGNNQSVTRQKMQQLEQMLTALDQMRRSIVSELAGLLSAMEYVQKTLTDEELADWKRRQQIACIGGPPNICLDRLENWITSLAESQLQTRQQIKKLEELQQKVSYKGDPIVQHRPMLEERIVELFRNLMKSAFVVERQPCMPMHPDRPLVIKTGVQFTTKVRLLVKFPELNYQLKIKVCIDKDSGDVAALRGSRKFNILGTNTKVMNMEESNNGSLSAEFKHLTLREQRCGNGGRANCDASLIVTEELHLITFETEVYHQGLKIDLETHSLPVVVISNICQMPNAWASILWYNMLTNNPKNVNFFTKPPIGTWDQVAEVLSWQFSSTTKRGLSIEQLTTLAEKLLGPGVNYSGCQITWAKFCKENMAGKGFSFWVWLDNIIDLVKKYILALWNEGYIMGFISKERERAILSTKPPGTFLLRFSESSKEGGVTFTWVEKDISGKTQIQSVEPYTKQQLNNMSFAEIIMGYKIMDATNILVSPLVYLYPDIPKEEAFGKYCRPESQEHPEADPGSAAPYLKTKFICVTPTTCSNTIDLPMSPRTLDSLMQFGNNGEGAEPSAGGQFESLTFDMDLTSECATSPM

The text below walks through data of article PMC10195822.

Experiment in all cases: DNA pull-down + immunoblot
One data set concerns the target USF1 (UniProt Q61069). As to conditions: LDPm-infected BMDC nuclear extract, 24 h; protein in an extract; label: biotin (pull-down), 32P (EMSA).
A further data set has as its target USF2 (UniProt Q64705). As to conditions: LDPm-infected BMDC nuclear extract, 24 h; protein in an extract; label: biotin (pull-down), 32P (EMSA). A general note: Mobility shift assays separate free from complexed probe on a gel.
For the next data set, the target named is STAT3 (UniProt P42227). As to conditions: LDPm-infected BMDC nuclear extract, 0.5 h; protein in an extract; label: biotin (pull-down), 32P (EMSA).
The target in the next data set is T1, Ets1 (UniProt P27577).
T1 sequence (looked up, limits assumed): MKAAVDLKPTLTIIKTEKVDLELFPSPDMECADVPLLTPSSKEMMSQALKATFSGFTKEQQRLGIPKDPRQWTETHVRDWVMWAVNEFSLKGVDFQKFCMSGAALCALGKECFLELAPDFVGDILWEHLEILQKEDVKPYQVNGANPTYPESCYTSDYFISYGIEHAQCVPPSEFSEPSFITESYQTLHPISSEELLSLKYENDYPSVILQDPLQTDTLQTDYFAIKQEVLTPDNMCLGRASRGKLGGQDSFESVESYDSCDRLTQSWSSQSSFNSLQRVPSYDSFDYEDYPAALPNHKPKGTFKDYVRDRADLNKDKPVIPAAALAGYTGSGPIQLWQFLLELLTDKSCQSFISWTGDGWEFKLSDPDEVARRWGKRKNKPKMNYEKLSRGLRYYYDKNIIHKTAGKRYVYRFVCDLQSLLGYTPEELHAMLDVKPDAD
As to conditions: LDPm-infected BMDC nuclear extract, 24 h; protein in an extract; label: biotin (pull-down), 32P (EMSA).

The target in another data set is T2, Ets2 (UniProt P15037).
T2 sequence (looked up, limits assumed): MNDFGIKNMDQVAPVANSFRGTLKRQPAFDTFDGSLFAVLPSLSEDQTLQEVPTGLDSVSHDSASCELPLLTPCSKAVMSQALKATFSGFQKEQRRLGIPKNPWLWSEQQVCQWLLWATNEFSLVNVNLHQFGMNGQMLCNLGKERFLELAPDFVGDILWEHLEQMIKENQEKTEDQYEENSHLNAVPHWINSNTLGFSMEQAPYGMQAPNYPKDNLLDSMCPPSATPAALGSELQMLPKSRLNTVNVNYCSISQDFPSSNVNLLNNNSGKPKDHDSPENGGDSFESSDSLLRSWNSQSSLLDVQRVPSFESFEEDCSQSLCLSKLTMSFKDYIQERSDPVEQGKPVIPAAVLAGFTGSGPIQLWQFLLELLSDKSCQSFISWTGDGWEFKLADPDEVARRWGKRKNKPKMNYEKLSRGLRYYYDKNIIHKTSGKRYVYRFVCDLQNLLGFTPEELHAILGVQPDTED
As to conditions: LDPm-infected BMDC nuclear extract, 24 h; protein in an extract; label: biotin (pull-down), 32P (EMSA).

As for “AGTACTAACGTGGTAATC (double strand) [USF-Pr]”, the binding result with USF1 and with USF2 was “binds” each time.

As for “CAAAAACCTTTGCCAAATCGGCCCCACTGAG (double strand) [Mut-Pr]”, the binding result with STAT3 is “no binding”.

As to “CAAAAACCTTTGCCAGGAAGGCCCCACTGAG (double strand) [Pr]”, the binding result with STAT3 is reported as “binds”.

As for “TCACTGGAGGTCAGACATCCTGGGG (double strand) [Ets-Pr]”, the binding result with Ets1 and in the data set with Ets2 was “binds” each time.
